Only a part is listed here, and it is no random draw.

By UniProt entry, the sequences of proteins in these tests, tags left out.
UniProt Q9UPU5, whole entry, looked up: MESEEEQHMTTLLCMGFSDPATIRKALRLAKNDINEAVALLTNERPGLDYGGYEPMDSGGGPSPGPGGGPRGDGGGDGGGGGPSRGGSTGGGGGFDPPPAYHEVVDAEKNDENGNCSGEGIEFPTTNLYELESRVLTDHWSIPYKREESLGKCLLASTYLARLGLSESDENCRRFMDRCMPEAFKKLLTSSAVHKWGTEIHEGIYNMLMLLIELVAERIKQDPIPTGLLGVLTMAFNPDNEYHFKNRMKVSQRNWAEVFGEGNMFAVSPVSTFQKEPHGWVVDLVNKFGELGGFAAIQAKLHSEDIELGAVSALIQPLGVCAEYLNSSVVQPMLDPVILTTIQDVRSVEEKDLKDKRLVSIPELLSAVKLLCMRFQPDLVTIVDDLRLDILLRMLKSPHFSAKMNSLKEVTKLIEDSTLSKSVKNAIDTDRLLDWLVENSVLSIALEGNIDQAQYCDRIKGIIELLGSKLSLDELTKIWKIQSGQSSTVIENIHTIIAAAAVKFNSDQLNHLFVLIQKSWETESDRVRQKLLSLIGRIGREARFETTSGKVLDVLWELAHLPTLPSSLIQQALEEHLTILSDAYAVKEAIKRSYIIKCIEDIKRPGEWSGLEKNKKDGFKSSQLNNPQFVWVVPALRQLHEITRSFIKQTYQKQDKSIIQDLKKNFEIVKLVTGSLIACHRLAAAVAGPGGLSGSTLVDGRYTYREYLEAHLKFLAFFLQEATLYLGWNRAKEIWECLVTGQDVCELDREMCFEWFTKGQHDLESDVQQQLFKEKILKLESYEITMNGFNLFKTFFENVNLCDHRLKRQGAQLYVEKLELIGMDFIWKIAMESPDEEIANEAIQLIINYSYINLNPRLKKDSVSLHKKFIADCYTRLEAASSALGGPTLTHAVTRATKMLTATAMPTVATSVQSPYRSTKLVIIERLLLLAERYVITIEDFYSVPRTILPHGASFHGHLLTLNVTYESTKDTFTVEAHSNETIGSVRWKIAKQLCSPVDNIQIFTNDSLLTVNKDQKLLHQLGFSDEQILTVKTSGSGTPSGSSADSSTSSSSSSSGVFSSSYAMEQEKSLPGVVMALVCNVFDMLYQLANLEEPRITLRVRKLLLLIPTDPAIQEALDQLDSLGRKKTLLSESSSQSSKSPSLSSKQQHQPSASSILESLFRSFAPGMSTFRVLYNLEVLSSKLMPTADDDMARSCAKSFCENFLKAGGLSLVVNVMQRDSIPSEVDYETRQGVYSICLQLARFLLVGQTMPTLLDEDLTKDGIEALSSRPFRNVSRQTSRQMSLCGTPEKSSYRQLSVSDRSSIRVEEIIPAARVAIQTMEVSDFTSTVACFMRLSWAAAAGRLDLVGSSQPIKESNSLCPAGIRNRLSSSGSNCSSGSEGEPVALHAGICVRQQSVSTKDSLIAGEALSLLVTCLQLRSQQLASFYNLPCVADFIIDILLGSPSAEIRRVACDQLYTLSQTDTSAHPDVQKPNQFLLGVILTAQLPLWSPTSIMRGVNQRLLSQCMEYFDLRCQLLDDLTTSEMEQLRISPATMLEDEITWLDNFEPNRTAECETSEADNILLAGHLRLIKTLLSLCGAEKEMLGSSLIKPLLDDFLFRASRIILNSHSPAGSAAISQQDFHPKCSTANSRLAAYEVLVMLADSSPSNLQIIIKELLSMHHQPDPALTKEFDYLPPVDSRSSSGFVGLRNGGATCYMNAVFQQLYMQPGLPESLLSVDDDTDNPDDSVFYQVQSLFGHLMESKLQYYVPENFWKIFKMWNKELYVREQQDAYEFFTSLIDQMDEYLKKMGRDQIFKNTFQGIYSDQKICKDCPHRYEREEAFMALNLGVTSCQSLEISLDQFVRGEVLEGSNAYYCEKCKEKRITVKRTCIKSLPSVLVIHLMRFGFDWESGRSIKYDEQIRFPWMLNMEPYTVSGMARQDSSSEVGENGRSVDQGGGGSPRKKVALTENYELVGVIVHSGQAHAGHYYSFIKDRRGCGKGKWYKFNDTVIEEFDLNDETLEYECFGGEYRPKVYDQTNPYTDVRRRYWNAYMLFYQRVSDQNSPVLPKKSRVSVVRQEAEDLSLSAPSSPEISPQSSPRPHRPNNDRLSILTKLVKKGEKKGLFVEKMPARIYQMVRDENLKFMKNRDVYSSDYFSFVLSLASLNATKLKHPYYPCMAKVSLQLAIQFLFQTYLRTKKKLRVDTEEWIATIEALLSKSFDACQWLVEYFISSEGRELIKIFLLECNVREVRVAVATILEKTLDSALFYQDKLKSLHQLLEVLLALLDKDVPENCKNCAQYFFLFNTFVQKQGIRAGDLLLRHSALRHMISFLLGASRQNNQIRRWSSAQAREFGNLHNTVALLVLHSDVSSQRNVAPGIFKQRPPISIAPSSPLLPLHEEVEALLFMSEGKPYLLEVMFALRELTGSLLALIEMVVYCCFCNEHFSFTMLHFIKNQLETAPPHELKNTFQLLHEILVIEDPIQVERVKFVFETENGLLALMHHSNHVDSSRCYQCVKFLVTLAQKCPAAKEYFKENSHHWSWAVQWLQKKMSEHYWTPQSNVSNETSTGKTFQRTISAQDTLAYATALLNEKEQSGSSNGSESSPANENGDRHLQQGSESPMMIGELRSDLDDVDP
UniProt Q5T2D3, whole entry, looked up: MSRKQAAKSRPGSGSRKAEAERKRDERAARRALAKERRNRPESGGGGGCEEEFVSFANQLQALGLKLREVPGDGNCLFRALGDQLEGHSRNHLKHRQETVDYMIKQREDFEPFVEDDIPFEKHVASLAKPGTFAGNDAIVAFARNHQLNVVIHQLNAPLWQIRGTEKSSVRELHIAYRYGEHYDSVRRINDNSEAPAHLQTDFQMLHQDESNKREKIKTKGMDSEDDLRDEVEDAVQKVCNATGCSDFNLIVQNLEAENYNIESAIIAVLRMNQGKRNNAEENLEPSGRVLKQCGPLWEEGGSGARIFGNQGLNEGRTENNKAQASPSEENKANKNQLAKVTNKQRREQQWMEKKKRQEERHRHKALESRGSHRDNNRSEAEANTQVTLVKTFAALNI
UniProt Q53GS9, whole entry, looked up: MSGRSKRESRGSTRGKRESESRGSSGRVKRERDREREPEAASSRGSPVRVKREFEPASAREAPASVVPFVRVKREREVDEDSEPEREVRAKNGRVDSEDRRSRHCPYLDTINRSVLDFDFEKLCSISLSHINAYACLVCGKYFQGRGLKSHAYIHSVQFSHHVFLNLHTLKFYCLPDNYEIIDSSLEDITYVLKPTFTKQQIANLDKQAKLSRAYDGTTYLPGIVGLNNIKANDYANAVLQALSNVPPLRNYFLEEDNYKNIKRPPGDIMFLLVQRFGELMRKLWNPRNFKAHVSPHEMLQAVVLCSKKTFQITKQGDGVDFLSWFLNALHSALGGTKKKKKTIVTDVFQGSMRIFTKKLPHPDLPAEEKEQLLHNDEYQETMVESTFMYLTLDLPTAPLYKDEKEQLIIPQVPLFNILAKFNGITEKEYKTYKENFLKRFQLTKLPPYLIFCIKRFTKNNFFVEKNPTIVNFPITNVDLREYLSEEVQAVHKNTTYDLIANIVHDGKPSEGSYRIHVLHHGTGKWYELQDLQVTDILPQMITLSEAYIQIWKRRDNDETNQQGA
UniProt Q13107, whole entry, looked up: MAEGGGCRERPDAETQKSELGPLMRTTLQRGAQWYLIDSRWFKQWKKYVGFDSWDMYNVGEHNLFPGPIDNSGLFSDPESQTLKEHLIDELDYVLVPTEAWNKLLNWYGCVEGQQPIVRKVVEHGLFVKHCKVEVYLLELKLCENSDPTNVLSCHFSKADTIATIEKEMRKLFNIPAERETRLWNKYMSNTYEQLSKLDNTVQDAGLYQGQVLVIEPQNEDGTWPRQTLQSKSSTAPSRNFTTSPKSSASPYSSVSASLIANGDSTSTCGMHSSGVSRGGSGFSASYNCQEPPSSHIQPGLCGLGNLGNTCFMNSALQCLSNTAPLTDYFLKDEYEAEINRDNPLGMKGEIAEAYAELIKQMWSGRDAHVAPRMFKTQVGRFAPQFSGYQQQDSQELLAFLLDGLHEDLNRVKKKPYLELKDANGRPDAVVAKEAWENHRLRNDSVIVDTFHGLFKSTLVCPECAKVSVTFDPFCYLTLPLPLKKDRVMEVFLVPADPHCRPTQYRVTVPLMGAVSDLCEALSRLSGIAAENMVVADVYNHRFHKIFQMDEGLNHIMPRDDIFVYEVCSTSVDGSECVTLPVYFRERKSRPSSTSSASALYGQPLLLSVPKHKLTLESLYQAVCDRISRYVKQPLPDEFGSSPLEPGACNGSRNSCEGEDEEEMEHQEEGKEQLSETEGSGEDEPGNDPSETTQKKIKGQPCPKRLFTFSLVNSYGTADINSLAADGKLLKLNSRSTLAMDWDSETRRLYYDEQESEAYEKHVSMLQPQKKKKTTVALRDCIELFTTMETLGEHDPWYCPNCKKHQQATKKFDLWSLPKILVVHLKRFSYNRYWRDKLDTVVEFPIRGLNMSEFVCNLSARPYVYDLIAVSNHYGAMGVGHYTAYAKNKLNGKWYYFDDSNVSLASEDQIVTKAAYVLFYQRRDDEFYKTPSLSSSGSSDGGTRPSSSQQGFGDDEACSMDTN
UniProt Q9H9J4, whole entry, looked up: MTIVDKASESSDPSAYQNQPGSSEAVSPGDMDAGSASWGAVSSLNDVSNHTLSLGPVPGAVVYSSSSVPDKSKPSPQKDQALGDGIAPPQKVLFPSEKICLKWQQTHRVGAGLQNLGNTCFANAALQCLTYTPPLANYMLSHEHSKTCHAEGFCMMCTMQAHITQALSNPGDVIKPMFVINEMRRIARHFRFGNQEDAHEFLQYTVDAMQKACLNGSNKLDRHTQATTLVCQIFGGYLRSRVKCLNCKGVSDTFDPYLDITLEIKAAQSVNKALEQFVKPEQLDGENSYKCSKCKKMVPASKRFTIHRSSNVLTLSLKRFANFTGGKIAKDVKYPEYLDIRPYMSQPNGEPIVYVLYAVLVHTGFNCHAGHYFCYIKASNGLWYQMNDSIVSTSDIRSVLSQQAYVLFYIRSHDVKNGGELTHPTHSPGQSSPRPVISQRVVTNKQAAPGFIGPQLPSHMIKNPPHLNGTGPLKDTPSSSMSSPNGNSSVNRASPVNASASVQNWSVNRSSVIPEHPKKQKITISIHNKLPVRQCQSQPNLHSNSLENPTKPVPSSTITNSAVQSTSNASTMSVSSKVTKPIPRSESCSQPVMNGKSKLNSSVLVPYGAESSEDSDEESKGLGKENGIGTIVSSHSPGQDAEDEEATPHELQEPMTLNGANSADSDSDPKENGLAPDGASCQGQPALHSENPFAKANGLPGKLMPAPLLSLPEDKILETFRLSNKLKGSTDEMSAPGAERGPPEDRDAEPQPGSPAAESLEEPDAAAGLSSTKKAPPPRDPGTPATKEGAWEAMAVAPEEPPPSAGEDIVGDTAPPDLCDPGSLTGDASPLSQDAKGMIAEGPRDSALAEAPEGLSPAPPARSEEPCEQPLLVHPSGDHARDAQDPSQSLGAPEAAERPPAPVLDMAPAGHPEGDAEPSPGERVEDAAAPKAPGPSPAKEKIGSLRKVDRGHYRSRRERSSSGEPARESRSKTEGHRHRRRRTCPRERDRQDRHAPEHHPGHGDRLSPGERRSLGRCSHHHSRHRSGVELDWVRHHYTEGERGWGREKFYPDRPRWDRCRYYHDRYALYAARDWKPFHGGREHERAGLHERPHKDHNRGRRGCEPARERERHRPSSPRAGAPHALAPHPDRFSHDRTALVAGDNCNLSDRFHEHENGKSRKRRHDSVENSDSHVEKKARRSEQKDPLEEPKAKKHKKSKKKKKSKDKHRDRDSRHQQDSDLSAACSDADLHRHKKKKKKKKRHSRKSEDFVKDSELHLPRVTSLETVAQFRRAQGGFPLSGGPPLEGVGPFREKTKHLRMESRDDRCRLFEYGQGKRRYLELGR
UniProt Q96FW1, whole entry, looked up: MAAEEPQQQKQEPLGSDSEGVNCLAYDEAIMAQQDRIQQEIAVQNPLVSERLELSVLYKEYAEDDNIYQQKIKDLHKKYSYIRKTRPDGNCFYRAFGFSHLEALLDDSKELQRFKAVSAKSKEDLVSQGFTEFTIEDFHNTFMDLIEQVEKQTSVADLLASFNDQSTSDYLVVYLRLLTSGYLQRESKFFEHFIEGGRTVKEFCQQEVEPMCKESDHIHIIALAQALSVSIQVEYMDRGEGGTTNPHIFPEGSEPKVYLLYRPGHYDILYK
UniProt Q5VVQ6, whole entry, looked up: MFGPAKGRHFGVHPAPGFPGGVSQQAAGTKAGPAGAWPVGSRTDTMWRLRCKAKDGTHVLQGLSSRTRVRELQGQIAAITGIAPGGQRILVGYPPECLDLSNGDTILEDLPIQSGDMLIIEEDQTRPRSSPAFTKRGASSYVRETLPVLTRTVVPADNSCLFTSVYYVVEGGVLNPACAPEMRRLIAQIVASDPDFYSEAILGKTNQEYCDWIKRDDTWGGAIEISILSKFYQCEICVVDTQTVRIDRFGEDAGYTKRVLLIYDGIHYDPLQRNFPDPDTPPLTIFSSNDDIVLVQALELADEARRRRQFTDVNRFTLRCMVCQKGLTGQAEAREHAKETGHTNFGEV

Compound in this test: CN(C)C1(CNC(=O)CCl)CCCCC1
Nature of the test: log2 ratio of Biotin-Ahx-Ub-VS probe labelling (fragment/DMSO); higher = less target engagement (more negative = stronger competition), active = hit call of the paper (q ≤ 0.05, log2 ratio ≤ -1). Particulars: compound concentration: 200 uM; treatment time: 3 h. How it is done:
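Competitive ABPP in HEK293T cell lysate. Lysates were treated with each chloroacetamide fragment at 200 µM for 3 h, then with Biotin-Ahx-Ub-VS (0.5 µM, 1 h), NeutrAvidin-enriched and analysed by diaPASEF LC-MS/MS. Protein LFQ was median-normalised; average log2 ratio is fragment/DMSO from an unpaired t-test (n=3 treated, n=44 DMSO). Hits: q ≤ 0.05, log2 ratio ≤ -1, unique peptides ≥ 2.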
Take UniProt Q8TE49: the “log2 ratio of Biotin-Ahx-Ub-VS probe labelling” value (“log2 ratio” below) is inactive: -0.393. For UniProt Q9P2H5 the value was inactive: -0.228; for UniProt P54252, inactive: -0.342; for UniProt Q9Y4E8, inactive: -0.325. UniProt P45974: the “log2 ratio” value was inactive: -0.211.

For UniProt Q92905, the “log2 ratio” value was inactive: 0.0465. UniProt O15372: the “log2 ratio” value is inactive: -0.225. For UniProt Q96RU2 the value was inactive: -0.485; for UniProt Q70CQ2, inactive: -0.25; for UniProt Q9UPU5, inactive: -0.228. For UniProt Q5T2D3 the value was inactive: -0.401. In the case of UniProt Q86UV5 it was inactive: -0.776; in that of UniProt Q70EL1, inactive: 0.529; in that of UniProt Q14694, inactive: -0.09. For UniProt Q9NP73, the “log2 ratio” value was inactive: 0.248. In the case of UniProt O94966 it was inactive: -0.0668; in that of UniProt O00507, inactive: -0.044; in that of UniProt Q6GQQ9, inactive: -0.525. Regarding UniProt Q53GS9, the “log2 ratio” value was inactive: -0.131. In the case of UniProt O00487 it was inactive: 0.0229. For UniProt Q9Y5K5 the value was inactive: -0.424. In the case of UniProt P51784 it was inactive: -0.181. Take UniProt Q13107: the “log2 ratio” value was inactive: -0.214. UniProt O00303: the “log2 ratio” value was inactive: 0.0544. With UniProt Q01804, the “log2 ratio” value is inactive: -0.397. In the case of UniProt Q9H9J4 it was inactive: -0.597. Consider UniProt Q9P275, for which the “log2 ratio” value is inactive: -0.237. In the case of UniProt Q96FW1 it was inactive: 0.134; in that of UniProt Q5VVQ6, inactive: -0.206; in that of UniProt Q8N6M0, inactive: -0.263.

As for UniProt Q9UGI0, the “log2 ratio” value is inactive: -0.453. For UniProt Q96JH7 the value was inactive: -0.681; for UniProt P54578, inactive: -0.311; for UniProt Q8NB14, inactive: -0.0858. For UniProt P15374 the value was inactive: 0.0608. Turning to UniProt Q9UPT9, the “log2 ratio” value was inactive: -0.115.

Take UniProt Q93008: the “log2 ratio” value was inactive: -0.289.

On to UniProt P51665, for which the “log2 ratio” value was inactive: -0.233. As to UniProt Q9Y5T5, the “log2 ratio” value is inactive: -0.229. As for UniProt Q6P2Q9, the “log2 ratio” value was inactive: 0.0605.

These data come from the supplement of paper PMC11732987, “Enantioselective OTUD7B fragment discovery through chemoproteomics screening and high-throughput optimisation” (Communications Chemistry, 2025).
